Results of unrelated studies side by side (data: NIAID ChemDB).

All rows: growth or infection tests; agent: Mycobacterium avium complex

Conditions beyond the fields shown may differ between rows. An empty or dashed field is not shown. Two numbers with a dash give a range or band. Inhibition is in % at the dose shown (toxicity tests: loss of growth or viability).

smiles | read by | strain | cell line | read-out | dose | result
CC1(C)N=C(N)N=C(N)N1OCCCOc1cc(Cl)c(Cl)cc1Cl | - | DW12 | - | MIC | - | 1 µg/mL
Nc1ccc(S(=O)(=O)c2ccc(N)cc2)cc1 | - | DW3 | - | MIC | - | 32 µg/mL
NNC(=O)c1ccncc1 | - | 11016 | - | MIC | - | 1.26–1.6 µg/mL
OC[C@H]1OC(O)C[C@@H](O)[C@@H]1O | - | Serovar 4 | - | inhibition | 1000 µg/mL | 5%
N[C@@H]1CN(c2c(F)cc3c(=O)c(C(=O)O)cn([C@@H]4C[C@@H]4F)c3c2Cl)CC12CC2 | - | 100 | Macrophages | inhibition | 10 µg/mL | 100%
CC[C@H]1OC(=O)[C@H](C)[C@@H](O[C@H]2C[C@@](C)(OC)[C@@H](OC(C)=O)[C@H](C)O2)[C@H](C)[C@@H](O[C@@H]2O[C@H](C)C[C@H](N(C)C)[C@H]2OC(=O)NNCc2cccc(OC)c2)C(C)(O)C[C@@H](C)/C(=N\OCCCC2CCCCC2)[C@H](C)[C@@H](O)[C@]1(C)O | - | 20096 (clarithromycin-resistant) | - | MIC | - | 0.78 µg/mL
CC1(C)N=C(N)N=C(N)N1OCCCOc1cc(Cl)c(Cl)cc1Cl | - | 4304-4 | - | MIC | - | 1 µg/mL
CC[C@H]1OC(=O)[C@H](C)[C@@H](O[C@H]2C[C@@](C)(OC)[C@@H](OC(C)=O)[C@H](C)O2)[C@H](C)[C@@H](O[C@@H]2O[C@H](C)C[C@H](N(C)C)[C@H]2O)C(C)(O)C[C@@H](C)/C(=N\OCCCC2CCCCC2)[C@H](C)[C@@H](O)[C@]1(C)O | - | 20096 (clarithromycin-resistant) | - | MIC | - | 1.56 µg/mL
NC(=O)c1cnccn1 | - | 33 strains (pyrazinamidase-positive) | - | inhibition | 100 µg/mL | 0%
CC[C@H]1OC(=O)[C@H](C)[C@@H](OC2C[C@@](C)(OC)[C@@H](O)[C@H](C)O2)[C@H](C)[C@@H](O[C@@H]2O[C@H](C)C[C@H](N(C)C)[C@H]2O)C(C)(O)C[C@@H](C)/C(=N\OCCCCOc2ccccc2)[C@H](C)[C@@H](O)[C@]1(C)O | - | 20096 (clarithromycin-resistant) | - | MIC | - | 6.25 µg/mL
CO[C@H]1/C=C/O[C@@]2(C)Oc3c(C)c(O)c4c(O)c(c5c(c4c3C2=O)NC2(CCN(CC(C)C)CC2)N=5)=NC(=O)/C(C)=C\C=C\[C@H](C)[C@H](O)[C@@H](C)[C@@H](O)[C@@H](C)[C@H](OC(C)=O)[C@@H]1C | - | N-238 (HIV-) | - | MIC | - | 0.125 µg/mL
CC[C@H]1OC(=O)[C@H](C)[C@@H](OC2C[C@@](C)(OC)[C@@H](O)[C@H](C)O2)[C@H](C)[C@@H](O[C@@H]2O[C@H](C)C[C@H](N(C)C)[C@H]2O)C(C)(O)C[C@@H](C)/C(=N\OCc2ccccc2)[C@H](C)[C@@H](O)[C@]1(C)O | - | 20096 (clarithromycin-resistant) | - | MIC | - | >50 µg/mL
C[C@@H]1CN(c2c(F)c(N)c3c(=O)c(C(=O)O)cn(C4CC4)c3c2F)C[C@H](C)N1 | - | Isolate 90-1257 | - | MIC | - | 0.25 µg/mL
CC[C@H]1OC(=O)[C@H](C)[C@@H](OC(C)=O)[C@H](C)[C@@H](O[C@@H]2O[C@H](C)C[C@H](N(C)C)[C@H]2O)C(C)(O)C[C@@H](C)/C(=N\OCCCOc2ccccc2)[C@H](C)[C@@H](O)[C@]1(C)O | - | 20096 (clarithromycin-resistant) | - | MIC | - | 25 µg/mL
CCc1cc(C(N)=S)ccn1 | agar | 155 strains | - | inhibition | 5 µg/mL | 7.1%

The last 2 rows once more:

smiles | read by | strain | cell line | read-out | dose | result
CC[C@H]1OC(=O)[C@H](C)[C@@H](OC(C)=O)[C@H](C)[C@@H](O[C@@H]2O[C@H](C)C[C@H](N(C)C)[C@H]2O)C(C)(O)C[C@@H](C)/C(=N\OCCCOc2ccccc2)[C@H](C)[C@@H](O)[C@]1(C)O | - | 20096 (clarithromycin-resistant) | - | MIC | - | 25 µg/mL
CCc1cc(C(N)=S)ccn1 | agar | 155 strains | - | inhibition | 5 µg/mL | 7.1%